Test results from patent US6699656B2, “Treatment and prevention of HIV infection by administration of derivatives of human chorionic gonadotropin” (University of Maryland Biotechnology Institute, priority 1996, dated 2004).
Entries after “also recorded” stand apart in the source; their conditions may differ.

System: HIV-1
Test: HIV-1 acute infection in vitro (p24 antigen)
Assay type: cell-based
Conditions: p24 antigen days 3 to 10; peptides 0.05 to 50 nmoles/ml, hCG 0.01 to 1,000 IU, native β-hCG 100 to 1,000 μg
Procedure: Sequences of the peptides are as follows:
HIV-1 infected cells were treated with the above preparations and the virus was measured.

recombinant α-chain: purified recombinant α-chain of hCG [reference compound]
inhibition of HIV-1 infection/replication in acutely infected cells: little or no inhibition; also recorded: inactive
